Results reported in US9205128B2, “Method for inhibiting HIV replication in mammal and human cells” (priority 2010, dated 2015).

Protein sequences, listed by entry. Tags and fused reporters are not part of them.
UniProt P08670, whole entry: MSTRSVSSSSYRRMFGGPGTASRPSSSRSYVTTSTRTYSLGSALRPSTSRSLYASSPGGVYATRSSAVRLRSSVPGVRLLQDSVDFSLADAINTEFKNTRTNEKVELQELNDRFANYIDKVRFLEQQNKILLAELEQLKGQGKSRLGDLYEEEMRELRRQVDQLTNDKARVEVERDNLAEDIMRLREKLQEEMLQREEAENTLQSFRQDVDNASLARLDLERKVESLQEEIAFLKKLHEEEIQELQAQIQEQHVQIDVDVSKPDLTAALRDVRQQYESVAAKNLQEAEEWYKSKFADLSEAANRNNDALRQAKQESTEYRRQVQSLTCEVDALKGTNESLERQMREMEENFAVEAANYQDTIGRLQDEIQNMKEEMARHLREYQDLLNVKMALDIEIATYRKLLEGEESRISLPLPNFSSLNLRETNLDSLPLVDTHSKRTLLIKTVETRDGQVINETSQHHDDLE

Key:
[1] = test system: HIV-1; settings: PBMCs of infected individuals treated ex vivo; 15d-PGJ2 at 5 μM; vs untreated cells
[2] = target: T1, vimentin (Homo sapiens, UniProt P08670); experiment: Western blot of vimentin in MT4 cells incubated with peptides; format: cell-based; settings: 50 μM peptide, 24 h
T1 construct: these proteins are endogenous cellular proteins rather than viral; endogenous in cells; host or cells: MT4 cell line (untransduced, shRNA-transduced MT4vim(s), or peptide-treated)
Protocol: The MT4 cell line was incubated at 50 μM of each peptide for 24 h. The vimentin protein was detected by the western blot technique. Cellular extracts were resuspended in 1% sodium dodecyl sulphate (SDS) and applied in a 10% polyacrylamide gel, being further transferred to a Hybond-P […] membrane. For immunoidentification purposes, anti-vimentin and anti-β actin (as control) antibodies were used. An anti-mouse IgG antibody-peroxidase conjugate was used as secondary antibody. The activity of the peroxidase enzyme was visualized by using diaminobenzidine in the presence of hydrogen peroxide and PBS.

[3] = test system: HIV-2 CBL-20 strain; experiment: HIV-2 replication in pre-stimulated PBMCs, p24; format: cell-based; settings: 7 days
Protocol: PBMCs were isolated from whole blood of healthy individuals by using Ficoll density gradients. […] Cells were subsequently maintained in PHA-free medium and seeded at 150 000 cells per well in 96-well plates. After 24 h, peptides were added at different concentrations and the cultures were infected with the CBL-20 HIV-2 strain. The cultures were kept for 7 days, being changed every 3 days the medium and the peptides added. Cultures were harvested and supernatants collected to evaluate the presence of the p24 viral protein.

Row | SMILES | % of HIV-1 inhibition [1] [%] | vimentin band intensity [2] | HIV-2 replication [3]
1 | CC[C@H](C)[C@H](NC(=O)[C@H](Cc1ccc(O)cc1)NC(=O)[C@H](CC(N)=O)NC(=O)[C@H](C)NC(=O)[C@H](Cc1ccccc1)NC(=O)[C@H](CCCNC(=N)N)NC(=O)[C@H](CC(=O)O)NC(=O)[C@H](CC(N)=O)NC(=O)[C@H](CC(C)C)NC(=O)[C@@H](N)CCC(=O)O)C(=O)N[C@@H](CC(=O)O)C(=O)N[C@@H](CCCCN)C(=O)N[C@H](C(=O)N[C@@H](CCCNC(=N)N)C(=O)N[C@@H](Cc1ccccc1)C(=O)N[C@@H](CC(C)C)C(=O)N[C@@H](CCC(=O)O)C(=O)N[C@@H](CCC(N)=O)C(=O)N[C@@H](CCC(N)=O)C(=O)N[C@@H](CC(N)=O)C(=O)O)C(C)C [Peptide 4] | 84.9 | decreased intensity | inhibited HIV-2 replication in a dose-dependent manner
2 | CC[C@H](C)[C@H](NC(=O)[C@H](Cc1ccc(O)cc1)NC(=O)[C@H](CC(N)=O)NC(=O)[C@H](C)NC(=O)[C@@H](N)Cc1ccccc1)C(=O)N[C@@H](CC(=O)O)C(=O)N[C@@H](CCCCN)C(=O)N[C@H](C(=O)N[C@@H](CCCNC(=N)N)C(=O)N[C@@H](Cc1ccccc1)C(=O)N[C@@H](CC(C)C)C(=O)N[C@@H](CCC(=O)O)C(=O)N[C@@H](CCC(N)=O)C(=O)N[C@@H](CCC(N)=O)C(=O)N[C@@H](CC(N)=O)C(=O)N[C@@H](CCCCN)C(=O)N[C@H](C(=O)N[C@@H](CC(C)C)C(=O)N[C@@H](CC(C)C)C(=O)N[C@@H](C)C(=O)O)[C@@H](C)CC)C(C)C [Peptide 5] | 82.1 | decreased intensity | inhibited HIV-2 replication in a dose-dependent manner
3 | CC[C@H](C)[C@H](NC(=O)[C@H](CCCCN)NC(=O)[C@H](CC(N)=O)NC(=O)[C@H](CCC(N)=O)NC(=O)[C@H](CCC(N)=O)NC(=O)[C@H](CCC(=O)O)NC(=O)[C@H](CC(C)C)NC(=O)[C@H](Cc1ccccc1)NC(=O)[C@H](CCCNC(=N)N)NC(=O)[C@@H](NC(=O)[C@H](CCCCN)NC(=O)[C@@H](N)CC(=O)O)C(C)C)C(=O)N[C@@H](CC(C)C)C(=O)N[C@@H](CC(C)C)C(=O)N[C@@H](C)C(=O)N[C@@H](CCC(=O)O)C(=O)N[C@@H](CC(C)C)C(=O)N[C@@H](CCC(=O)O)C(=O)N[C@@H](CCC(N)=O)C(=O)N[C@@H](CC(C)C)C(=O)O [Peptide 6] | 80.5 |  | inhibited HIV-2 replication in a dose-dependent manner
